Measured values from several laboratories, pooled; numbers as filed in NIAID ChemDB.

Shared fields: cytotoxicity tests; cell line: MT-4; endpoint: CC50

CCn: concentration that lowers growth or viability of the cells by n%.

{"compound": "O=C1C=CC(=C(c2ccc(O)cc2)c2ccc(O)cc2)C=C1", "value": ">100 µg/mL"}
{"compound": "Cc1c(-c2c([C@H](OC(C)(C)C)C(=O)O)cnc3ccccc23)cc(F)c2c1CCCO2", "value": "42 µM"}
{"compound": "Cc1cn([C@H]2C[C@H](N=[N+]=[N-])[C@@H](COP(=O)(O)C(N)=O)O2)c(=O)[nH]c1=O", "method": "MTT", "value": ">300 µM"}
{"compound": "CCOC(=O)CNc1nc(Nc2ccccc2C)nc(Oc2cc(=O)oc3ccccc23)n1", "method": "MTT", "value": "23.12 µg/mL"}
{"compound": "O=C(O)Cc1ccc(O)c(O)c1", "value": "142 µg/mL"}
{"compound": "O=C1c2ccccc2N(COCc2ccccc2)S(=O)(=O)N1Cc1ccccc1", "value": "18.6–19.8 µM"}
{"compound": "COc1ccccc1N1CCN(c2c(F)cc3c(=O)c(C(=O)O)cn(CCF)c3c2OC)CC1", "value": "10 µg/mL"}
{"compound": "COc1c(C(=O)/C=C(/C)Nc2ccc(Cl)cc2)c(O)c(S(=O)(=O)OC2CCCCC2)c2occc12", "method": "MTT", "value": "480 µM"}
{"compound": "COc1ccc(N2CCN(c3c(F)cc4c(=O)c(C(=O)O)cn(C5CC5)c4c3OC(F)F)CC2)cc1", "value": "50 µg/mL"}
{"compound": "COc1c(-c2cc(C)n(-c3ccccc3)n2)c(O)c(S(=O)(=O)OC2CCCCC2)c2occc12", "method": "MTT", "value": "210 µM"}
{"compound": "Clc1ccc(-c2nnc3sc(CC45CC6CC(CC(C6)C4)C5)nn23)cc1", "method": "MTT", "value": ">125 µg/mL"}
{"compound": "[N-]=[N+]=N[C@H]1C[C@@H](CO)O[C@H]1n1cnc2c(NC3CCCC3)ncnc21", "value": ">125 µg/mL"}
{"compound": "CCc1c(Cc2cccc3ccccc23)n(CSC)c(=O)[nH]c1=O", "value": "27 µM"}
{"compound": "Nc1ncnc2c1ncn2[C@@H]1O[C@H](CO)[C@]1(O)CO", "value": ">100 µg/mL"}
{"compound": "O=C(O)c1cc(O)c(O)c(O)c1", "value": "80 µg/mL"}
{"compound": "Cc1c(Cc2cccc3ccccc23)n(COCc2ccccc2)c(=O)[nH]c1=O", "value": "32.9 µM"}
{"compound": "CCOC(=O)CNc1nc(Nc2ccc(Cl)cc2)nc(Oc2cc(=O)oc3ccccc23)n1", "method": "MTT", "value": "45.6 µg/mL"}
{"compound": "Nc1ccn([C@@H]2CO[C@H](CO)O2)c(=O)n1", "value": "0.465 µM"}
{"compound": "O=C(O)c1cn(C2CC2)c2c(OC(F)F)c(N3CCN(c4ncc(Cl)cn4)CC3)c(F)cc2c1=O", "value": "3.99 µg/mL"}
{"compound": "CC(C)C[C@H](NC(=O)[C@@H](NC(=O)[C@H](Cc1c[nH]c2ccccc12)NC(=O)CCCCC(=O)Nc1ccn([C@H]2CC[C@@H](CO[Si](c3ccccc3)(c3ccccc3)C(C)(C)C)O2)c(=O)n1)C(C)C)[C@@H](O)CC(=O)NC(Cc1ccccc1)c1ccccc1", "value": "100 µM"}
{"compound": "Nc1nc(=O)n([C@H]2C=C[C@@H](CO)O2)cc1Cl", "value": "185 µM"}
{"compound": "CC(C)c1c(Cc2cccc3ccccc23)n(COCc2ccccc2)c(=O)[nH]c1=O", "value": "29.9 µM"}
{"compound": "Fc1cccc(-c2nnc3sc(CC45CC6CC(CC(C6)C4)C5)nn23)c1", "method": "MTT", "value": ">125 µg/mL"}
{"compound": "C=C1[C@H](n2cnc3c(N)ncnc32)O[C@@H]1CO", "value": "11 µg/mL"}
{"compound": "CN(C)S(=O)(=O)N(C)C1COCCn2c1nc(C(=O)NCc1ccc(F)cc1)c(O)c2=O", "method": "microscopy", "value": ">1 µM"}
{"compound": "Fc1cccc(F)c1CCn1c(=S)[nH]c2cccnc21", "value": ">25 µg/mL"}
{"compound": "Nc1nc2c(ncn2[C@@H]2CS[C@@H](CO)O2)c(=O)[nH]1", "value": ">372 µM"}
{"compound": "O=c1[nH]cnc2c1ncn2[C@@H]1O[C@H](CO)[C@H]1CO", "value": ">300 µg/mL"}
{"compound": "O=C1c2ccccc2N(Cc2ccccc2)S(=O)(=O)N1Cc1ccccc1", "value": "100 µM"}
{"compound": "COc1ccc(CSc2nc(C(C)c3c(F)cccc3F)c(C)c(=O)[nH]2)cc1", "method": "MTT", "value": ">12.43 µM"}
{"compound": "Cc1c(Cc2ccc3ccccc3c2)n(COCc2ccccc2)c(=O)[nH]c1=O", "value": "34.1 µM"}
{"compound": "O=C(O)c1ccc(O)c(O)c1", "value": "75 µg/mL"}
{"compound": "O=C(O)c1cn(C2CC2)c2c(OC(F)F)c(N3CCN(c4ccccc4)CC3)c(F)cc2c1=O", "value": "3 µg/mL"}
{"compound": "O=C1c2ccccc2N(Cc2ccccc2Cl)S(=O)(=O)N1Cc1ccccc1Cl", "value": "13–19.8 µM"}
{"compound": "COc1ccc(N/C(C)=C\\C(=O)c2c(O)c(S(=O)(=O)Oc3ccc([N+](=O)[O-])cc3)c3occc3c2OC)cc1", "method": "MTT", "value": "400 µM"}
{"compound": "Nc1nc(=O)n([C@H]2CC[C@@H](CO)O2)cc1Cl", "value": ">500 µM"}
{"compound": "Cc1cccc(O)c1O", "value": "92 µg/mL"}
{"compound": "CN(C)S(=O)(=O)N1CCn2c(nc(C(=O)NCc3ccc(F)cc3)c(O)c2=O)C1(C)C", "method": "microscopy", "value": ">1 µM"}
{"compound": "CC1(C)[C@@H](CCO)C[C@H]1n1nnc2c(=O)[nH]cnc21", "value": "112 µg/mL"}
{"compound": "COc1ccc(CCNc2nc(NC(=O)Nc3ccccc3C)nc(Oc3cc(=O)oc4ccccc34)n2)cc1OC", "method": "MTT", "value": "16.9 µg/mL"}
{"compound": "COc1ccccc1N1CCN(c2c(F)cc3c(=O)c(C(=O)O)cn(CCOC(C)=O)c3c2OC(F)F)CC1", "value": "9.3 µg/mL"}
{"compound": "Cc1cccc(-c2nnc3sc(CC45CC6CC(CC(C6)C4)C5)nn23)c1", "method": "MTT", "value": "≥10.9 µg/mL"}
{"compound": "Nc1ccn([C@@H]2CO[C@@H](CO)O2)c(=O)n1", "value": ">437 µM"}
{"compound": "Cc1ccc(CNC(=O)c2nc3n(c(=O)c2O)CCN(C2CC2)CC3N(C)C(=O)C(=O)N(C)C)cc1Cl", "method": "microscopy", "value": ">1 µM"}
{"compound": "Cc1cn([C@H]2C[C@H](N=[N+]=[N-])[C@@H](COP(=O)(O)CO)O2)c(=O)[nH]c1=O", "method": "MTT", "value": ">500 µM"}
{"compound": "COc1c(-c2cc(C)n(-c3ccccc3)n2)c(O)c(S(=O)(=O)OC2CCCC2)c2occc12", "method": "MTT", "value": "190 µM"}
{"compound": "Nc1ncnc2c1ncn2[C@@H]1O[C@H](CO)[C@@H]1O", "value": ">10 µg/mL"}
{"compound": "Fc1ccccc1-c1nnc2sc(CC34CC5CC(CC(C5)C3)C4)nn12", "method": "MTT", "value": "≥14.9 µg/mL"}
{"compound": "CCSCSc1nc(Cc2cccc3ccccc23)c(CC)c(=O)[nH]1", "value": ">100 µM"}
{"compound": "Oc1cccc(O)c1O", "value": "98 µg/mL"}
{"compound": "c1ccc(COC2C3COC(O3)C(OCc3ccccc3)C2OCc2ccccc2)cc1", "method": "MTT", "value": ">162 µg/mL"}
{"compound": "CN(C)CCN1CCn2c(nc(C(=O)NCc3ccc(F)cc3)c(O)c2=O)C1(C)C", "method": "microscopy", "value": ">1 µM"}
{"compound": "Fc1cccc(F)c1CCn1c(=S)[nH]c2ccc(Cl)nc21", "value": ">25 µg/mL"}
{"compound": "CC1(C)[C@@H](CCO)C[C@H]1n1cnc2c(N)ncnc21", "value": "≥250 µg/mL"}
{"compound": "CCOCn1c(Cc2cccc3ccccc23)c(C(C)C)c(=O)[nH]c1=O", "value": "38.3 µM"}
{"compound": "COc1ccc2[nH]c(=S)n(Cc3c(F)cccc3F)c2c1", "value": "1.71 µg/mL"}
{"compound": "COc1ccccc1N1CCN(c2c(F)cc3c(=O)c(C(=O)O)cn(C)c3c2OC(F)F)CC1", "value": "6.489 µg/mL"}
{"compound": "CC1(C)[C@@H](CCO)C[C@H]1n1nnc2c(N)nc(N)nc21", "value": "180 µg/mL"}
{"compound": "Cc1ccnc2c1[nH]c(=S)n2Cc1c(F)cccc1F", "value": "0.083 µg/mL"}
{"compound": "CC1=C(C)CC(COCP(=O)(OCCSC(=O)C(C)(C)C)OCCSC(=O)C(C)(C)C)(n2cnc3c(N)ncnc32)C1", "method": "XTT", "value": "47 µM"}
{"compound": "COc1c2ccoc2c(S(=O)(=O)OC2CCCC2)c2oc(C)cc(=O)c12", "method": "MTT", "value": "580 µM"}
{"compound": "CNc1ncnc2c1ncn2[C@@H]1O[C@H](CO)C[C@@H]1N=[N+]=[N-]", "value": "100.8 µg/mL"}
{"compound": "CC(C)(C)n1cc(C(=O)O)c(=O)c2cc(F)c(N3CCN(c4ncccn4)CC3)cc21", "value": ">24.8 µg/mL"}
{"compound": "O=c1ccn([C@@H]2CS[C@@H](CO)O2)c(=O)[nH]1", "value": ">437 µM"}
{"compound": "COc1ccccc1N1CCN(c2c(F)cc3c(=O)c(C(=O)O)cn(CCF)c3c2OC(F)F)CC1", "value": "5.53 µg/mL"}
{"compound": "Fc1ccc(-c2nnc3sc(CC45CC6CC(CC(C6)C4)C5)nn23)cc1", "method": "MTT", "value": "65.33 µg/mL"}
{"compound": "CCOCn1c(Cc2ccccc2)c(C(C)C)c(=O)[nH]c1=O", "value": "141 µM"}
{"compound": "COc1ccc(CCNc2nc(NC(=O)Nc3ccc(F)cc3)nc(Oc3cc(=O)oc4ccccc34)n2)cc1OC", "method": "MTT", "value": "19.75 µg/mL"}
{"compound": "O=C1c2ccccc2N(Cc2cccc(Cl)c2)S(=O)(=O)N1Cc1ccccc1", "value": "20.6–23.8 µM"}
{"compound": "Nc1ccn([C@H]2CO[C@@H](CO)O2)c(=O)n1", "value": "43.9 µM"}
{"compound": "CC1=C(C)CC(COCP(=O)(O)O)(n2cnc3c(N)ncnc32)C1", "method": "XTT", "value": ">100 µM"}
{"compound": "Brc1ccccc1-c1nnc2sc(CC34CC5CC(CC(C5)C3)C4)nn12", "method": "MTT", "value": ">24.7 µg/mL"}
{"compound": "O=C(O)c1cn(C2CC2)c2c(OC(F)F)c(N3CCN(c4ncccn4)CC3)c(F)cc2c1=O", "value": "8.47 µg/mL"}
{"compound": "COc1c(-c2cc(C)on2)c(O)c(S(=O)(=O)Oc2ccc(F)cc2)c2occc12", "method": "MTT", "value": "260 µM"}
{"compound": "CCN(CC)CCN1CCn2c(nc(C(=O)NCc3ccc(F)cc3)c(O)c2=O)C1(C)C", "method": "microscopy", "value": ">1 µM"}
{"compound": "CC(C)C[C@H](NC(=O)[C@@H](NC(=O)[C@H](Cc1c[nH]c2ccccc12)NC(=O)CCCCCCC(=O)Nc1ccn([C@H]2CC[C@@H](CO)O2)c(=O)n1)C(C)C)[C@@H](O)CC(=O)NC(Cc1ccccc1)c1ccccc1", "value": "100 µM"}

The last 9 rows once more:

compound | method | value
COc1ccc(CCNc2nc(NC(=O)Nc3ccc(F)cc3)nc(Oc3cc(=O)oc4ccccc34)n2)cc1OC | MTT | 19.75 µg/mL
O=C1c2ccccc2N(Cc2cccc(Cl)c2)S(=O)(=O)N1Cc1ccccc1 |  | 20.6–23.8 µM
Nc1ccn([C@H]2CO[C@@H](CO)O2)c(=O)n1 |  | 43.9 µM
CC1=C(C)CC(COCP(=O)(O)O)(n2cnc3c(N)ncnc32)C1 | XTT | >100 µM
Brc1ccccc1-c1nnc2sc(CC34CC5CC(CC(C5)C3)C4)nn12 | MTT | >24.7 µg/mL
O=C(O)c1cn(C2CC2)c2c(OC(F)F)c(N3CCN(c4ncccn4)CC3)c(F)cc2c1=O |  | 8.47 µg/mL
COc1c(-c2cc(C)on2)c(O)c(S(=O)(=O)Oc2ccc(F)cc2)c2occc12 | MTT | 260 µM
CCN(CC)CCN1CCn2c(nc(C(=O)NCc3ccc(F)cc3)c(O)c2=O)C1(C)C | microscopy | >1 µM
CC(C)C[C@H](NC(=O)[C@@H](NC(=O)[C@H](Cc1c[nH]c2ccccc12)NC(=O)CCCCCCC(=O)Nc1ccn([C@H]2CC[C@@H](CO)O2)c(=O)n1)C(C)C)[C@@H](O)CC(=O)NC(Cc1ccccc1)c1ccccc1 |  | 100 µM

Rows are shuffled and stem from different studies. An empty or dashed field is not shown. Two numbers with a dash give a range or band.